Compound potency records, mixed from different reports. Data source: NIAID ChemDB in PubChem.

Shared fields: tests on isolated targets; agent: Hepatitis C virus; target: Nonstructural protein 5B; read-out: inhibition

Conditions beyond the fields shown may differ between rows.

SMILES	tested at	result
CSc1nc(Nc2ccc(N3CCOCC3)cc2)cc(N2CCN(CC(=O)N3CCN(c4ccccc4O)CC3)CC2)n1	1 µg/mL	60%
COc1nc(NCCCn2ccnc2)nc(Nc2ccc3cn[nH]c3c2)n1	10 µg/mL	66%
CC(C)CNc1cc(C(=O)Nc2ccc3cn[nH]c3c2)c(F)cc1F	10 µg/mL	30%
CON1C(Nc2ccc3cn[nH]c3c2)=NC(NC(C)C)=NC1NC(C)C	10 µg/mL	25%
O=C(O)c1ccc(S(=O)(=O)Nc2ccc(N3CCOCC3)cc2)cc1	0.1 µg/mL	52%
CCN(CC)CCNC(=O)CN1CCN(c2cc(Nc3ccc(N4CCOCC4)cc3)nc(SC)n2)CC1	1 µg/mL	75%
O=C(NCCN1CCOCC1)c1ccc(S(=O)(=O)Nc2ccc(N3CCOCC3)cc2)cc1	1 µg/mL	61%
COc1nc(Nc2ccc3cn[nH]c3c2)nc(NC2CC2)n1	1 µg/mL	54%
O=C(Nc1ccc2[nH]ncc2c1)c1cc(NCCN2CCOCC2)c(F)cc1F	1 µg/mL	26%
CCN(CC)C(=O)CN1CCN(c2cc(Nc3ccc(N4CCOCC4)cc3)nc(SC)n2)CC1	1 µg/mL	68%
CNC1N=C(OC)N=C(Nc2ccc3cn[nH]c3c2)N1CN	10 µg/mL	35%
CN(C)C(=O)c1ccc(S(=O)(=O)Nc2ccc(N3CCOCC3)cc2)cc1	0.01 µg/mL	20%
O=C(Nc1ccc2[nH]ncc2c1)c1cc(NCCc2ccccn2)c(F)cc1F	0.1 µg/mL	0%
CCOC(=O)C1CCN(c2nc(Nc3ccc4[nH]ncc4c3)nc(OC)n2)CC1	10 µg/mL	44%
O=C(Nc1ccc2cn[nH]c2c1)c1cc(NCCCn2ccnc2)c(F)cc1F	1 µg/mL	52%
CCOC(=O)C1=CN(N2CCN(c3nc(Nc4ccc5cn[nH]c5c4)nc(OC)n3)CC2)C(SC)N=C1	1 µg/mL	11%
CN(C)CCNc1cc(C(=O)Nc2ccc3cn[nH]c3c2)c(F)cc1F	10 µg/mL	39%
Cc1cnc(CNC(=O)c2ccc(S(=O)(=O)Nc3ccc(N4CCOCC4)cc3)cc2)cn1	10 µg/mL	97%
CC(Cc1ccccn1)Nc1cc(C(=O)Nc2ccc3cn[nH]c3c2)c(F)cc1F	1 µg/mL	26%
COc1nc(Nc2ccc3[nH]ncc3c2)nc(N2CCN(CCO)CC2)n1	10 µg/mL	68%
O=C(Nc1ccc2[nH]ncc2c1)c1cc(NCCN2CCCC2)c(F)cc1F	1 µg/mL	40%
CSc1nc(Nc2ccc(N3CCOCC3)cc2)cc(N2CCN(CC(=O)N3CCC(CO)CC3)CC2)n1	1 µg/mL	58%
COc1nc(NCCO)nc(Nc2ccc3[nH]ncc3c2)n1	10 µg/mL	52%
O=C(Nc1ccc2cn[nH]c2c1)c1cc(NCCO)c(F)cc1F	1 µg/mL	42%

Repeating the final 2 entries:

SMILES	tested at	result
COc1nc(NCCO)nc(Nc2ccc3[nH]ncc3c2)n1	10 µg/mL	52%
O=C(Nc1ccc2cn[nH]c2c1)c1cc(NCCO)c(F)cc1F	1 µg/mL	42%

Percent inhibition refers to the dose given; in toxicity tests it is the harm to the cells.